We go through twelve molecules from the supplement of paper PMC9931576.

Human monoclonal antibodies against the spike receptor-binding domain (heavy:light variable regions). IC50 against pseudoviruses bearing the spike of naturally observed variants; lower = stronger; >10 µg/ml means not reached at the top dose. No active / inactive call. The stated detection limit is 0.0005 µg/ml; values near or below 0.001 µg/ml lie at the floor of the assay.

Common to all, as to test: pseudovirus neutralization IC50; higher = weaker neutralization
Test [1] has as its target SARS-CoV-2 Omicron BA.1 spike pseudovirus. As to the method: (§1)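 Single-round VSV luciferase pseudovirus mixed with antibody dilutions for 1 h and put on Huh-7 cells for about a day; IC50 from the dose curve.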
Test [2] addresses SARS-CoV-2 Omicron BA.2 spike pseudovirus. As to the method:
as §1

For test [3], the target named is SARS-CoV-2 Omicron BA.2.75 spike pseudovirus. As to the method:
as §1

For test [4], the target named is SARS-CoV-2 Omicron BA.5 spike pseudovirus. As to the method:
as §1

The target in test [5] is SARS-CoV-2 Omicron BQ.1.1 spike pseudovirus. As to the method: as §1
Test [6] addresses SARS-CoV-2 Omicron XBB spike pseudovirus. How it is done:
as §1

Test [7] concerns the target SARS-CoV-2 early D614G spike pseudovirus. As to the method:
as §1

B1: BD56-625 (protein)
chain 1: QVQLAQSGAEVKQPGSSVKVSCKASGGTFSSYGVTWVRQAPGQGLEWMGRIFPFIGIANYAEKFQGRVTITADKSTSTAYMELSSLRSEDTAVYYCARDSPLCTSTNCFDYWGQGTLVTVSS
chain 2: QSVLTQPPSVSGAPGQRVTISCTGSNSNIGAGYDVHWYQQLPGTAPKLLIYNNNNRPSGVADRFSGSKSGTSASLAIAGLRAEDEADYFCQSYDSSLSDGVFGTGTKVTVL
Take B1: the “pseudovirus neutralization IC50” value was 0.0281 µg/mL in test [1]; 0.0234 µg/mL in test [2]; 0.0315 µg/mL in test [3]; 2.22 µg/mL in test [4]; over 10 µg/mL in test [5]; 1.7 µg/mL in test [6]. Besides, the “pseudovirus neutralization IC50” value in test [7] stood at 0.234 µg/mL.

B2: BD56-626 (protein)
chain 1: QVQLVQSGAEVKKPGASVKVSCQASGYTFTTYTMHWVRQAPGQRLEWMGWINAGNGNTKYSQMFQGRVTITRDTSASTAYMELSRLRSEDTAVYYCATEVTQLAHLIDVWGQGTTVTVSS
chain 2: QSALTQPRSVSGSPGQSVTISCTGTSSDVGDYDYVSWYQQHPGKAPKLMIYDVTKRPSGVPDRFSGSKSGNTASLTISGLQAEDEADFYCCSYAGSYTYVFGTGTKVTVL
Regarding B2, the “pseudovirus neutralization IC50” value in test [1] was 8.41 µg/mL; in test [2] it was 8.12 µg/mL; in test [3], over 10 µg/mL; in test [4], over 10 µg/mL; in test [5], over 10 µg/mL; in test [6] it was over 10 µg/mL. The “pseudovirus neutralization IC50” value in test [7] was 2.04 µg/mL.

B3: BD56-624 (protein)
chain 1: QVQLVQSGVEVKKPGSSVKVSCKVSGGTFSSYTITWVRQAPGQGLEWMGRIIPFLGIPNYAQTFQDRVTITADKSTNTAYMELNNLRSEDTAVYYCARDVTDAMAGTLGNNWFDPWGQGTLVTVSS
chain 2: QSVLSQPPSVSGAPGQRVTISCTGSNSNIGAGYDVHWYQQLPGTAPKLLISVNSNRPSGVPDRFSGSKSATSASLAITGLQAEDEADYYCQSYDSSLTQEVFGGGTKLTVL
On to B3, for which the “pseudovirus neutralization IC50” value is 0.0262 µg/mL in test [1]; 0.0187 µg/mL in test [2]; 0.022 µg/mL in test [3]; 5.47 µg/mL in test [4]; over 10 µg/mL in test [5]; 2.47 µg/mL in test [6]. The “pseudovirus neutralization IC50” value in test [7] came to 0.042 µg/mL.

B4: BD56-629 (protein)
chain 1: EVQLVESGGGLVQPGGSLRLSCAASGFTFSDYDMHWVRQGTGEGLEWVSTIGTSGDTYYPGSVKGRFTISRENAKNSLYLQMNSLRAGDTAVYYCARVNYDSSGYYWYFDLWGRGTLVTVSS
chain 2: DIQMTQSPSSLSASVGDRVTITCRASQSIGRYLNWYQQKPGKAPKVLIYSASSLQSGVPSRFSGSGSGTDFTLTISTLQPEDFATYYCQQSYSSPPWTFAQGTKVEIK
For the molecule B4, the “pseudovirus neutralization IC50” value in test [1], in test [2], in test [3], in test [4], in test [5] and in test [6] was over 10 µg/mL in each case. Further, the “pseudovirus neutralization IC50” value in test [7] is over 10 µg/mL.

B5: BD56-621 (protein)
chain 1: EVQLVESGGGLVQPGGSLRLSCAASGVTVSSNYMTWVRQAPGKGLEGVAVIYPGGSTFYADSVKSRFTISRHNSKNTLYLQMNSLRLEDTAVYYCARDLGPDGMDVWGQGTTVTVSS
chain 2: DIQLTQSPSFLSASVGDRVTITCRSSQGMSSYLAWYQQKPGKAPKLLIYAASTLQSRVPSRFSGSGSGTEFTLTISSLQPEDFATYYCQQLNSDPPVTFGGGTKVEIK
Regarding B5, the “pseudovirus neutralization IC50” value is 0.00579 µg/mL in test [1]; 0.00437 µg/mL in test [2]; 0.998 µg/mL in test [3]; 0.00915 µg/mL in test [4]; over 10 µg/mL in test [5]; over 10 µg/mL in test [6]. In addition, the “pseudovirus neutralization IC50” value in test [7] is 0.024 µg/mL.

B6: BD56-607 (protein)
chain 1: QVQLVESGGGVVQPGRSLRLSCAASGFSFSNYSMHWVRQAPGEGLEWVSVILDDGTGKLYADSVKGRFTISRDNSKKTLYLEMNSLRAEDTAVYFCARDTTAGTTMVTLFDYWGQGTLVTVSS
chain 2: DIQMTQSPSSLSASVGDRVTITCRASQNIRTYLNWYQQKPGKAPKLLMYVASSLQSGVPSRFSGSGSGTDFTLTISSLQPEDFAIYYCQQSYSTPPWTFGQGTKLYIK
Take B6: the “pseudovirus neutralization IC50” value in test [1], in test [2], in test [3], in test [4], in test [5] and in test [6] was over 10 µg/mL each time. In test [7], the “pseudovirus neutralization IC50” value was over 10 µg/mL.

B7: BD56-609 (protein)
chain 1: QVQLVQSGAEVKKPGASVKVSCKTSGYTFNNYGISWVRQAHGQGLEWMGWISPYNGDTNYAQRLQGRATMTTDTSTTTAYMELRSLRSDDTAVFYCATVAGGLGGDLLSEPYFDYWGQGTLVTVSS
chain 2: SYELTQPPSVSVSPGQTARITCSGDAFPNQYAYWYQQKPGQAPVLVIYRDSERPSGIPERFSGSSSGTTVTLTISGVQAEDEADYYCQSADSRAGVFGGGTKLTVL
In the case of B7, the “pseudovirus neutralization IC50” value in test [1] came out at 3.79 µg/mL; in test [2], 2.92 µg/mL; in test [3], 4.32 µg/mL; in test [4], 3.25 µg/mL; in test [5], 3.38 µg/mL; in test [6] it was 4.06 µg/mL. For the same molecule, in test [7], the “pseudovirus neutralization IC50” value was determined as 1.2 µg/mL.

B8: BD56-640 (protein)
chain 1: EVQLVESGGGLVQPGGSLRLSCAASGFMFTTYTMHWVRQAPGKRLEYVSAISSNGGTYYANSVKGRFTIARDNSKNRLYLQMGSLRADDMAVYYCARGEGTATIDYFDYWGQGTLVTVSS
chain 2: SYVLTQPPSVSVAPGQTARITCGGDDIGSKNVHWYQQKPGQAPVLVVFDDSDRPSGIPERFSGSNSGNTATLTIRRVEAGDEADYYCQVWDSSSDPHWVFGGGTKLTVL
B8: the “pseudovirus neutralization IC50” value in test [1] is 1.31 µg/mL; in test [2] it was 1.27 µg/mL; in test [3], 1.25 µg/mL; in test [4], 3.95 µg/mL; in test [5], over 10 µg/mL; in test [6], over 10 µg/mL. The “pseudovirus neutralization IC50” value in test [7] was 1.43 µg/mL.

B9: BD56-622 (protein)
chain 1: QITLKESGPTLVKATQTLTLTCTFSGFSLSTSGEGVGWIRQPPGKALEWLGFIYWNDDKPYSPSLKSRLTITKDTSKNQVVLTMTNMDPVDTATYYCAHTYYYDSRGYALDYWGQGTPVTVSS
chain 2: DIQMTQSPSSVSASVGDRVTITCRASQSIINWLAWYQQKPGKAPKLLIYAASSLQSGVPSRFSGSGSGTDFTLTISSLQPEDFATYYCQQANNFPITFGGGTKVEIK
Take B9: the “pseudovirus neutralization IC50” value turned out to be 1.11 µg/mL in test [1]; 1.15 µg/mL in test [2]; 1.04 µg/mL in test [3]; 1.15 µg/mL in test [4]; 2.08 µg/mL in test [5]; 4.6 µg/mL in test [6]. Moreover, the “pseudovirus neutralization IC50” value in test [7] was found to be 1.99 µg/mL.

B10: BD56-606 (protein)
chain 1: QMQLVQSGPEVKKPGTSVKVSCKASGFTFTYSAVQWVRQARGQGLEWIGWIVAGSGDTDYAQNFQERVTITRDMSSTTAYMELSSLRSDDTAVYYCAAPYCSGGKCRDGFDMWGQGTMVTVSS
chain 2: EVVLTQSPGTLSLSPGERATLSCRASQSVRSNYLAWYQQKPGQAPRVLIYGASTRATGIPDRFSGSGSGTDFTLIISRLEPEDFAVYYCQQYGNSPWTFGQGTKVEIK
Regarding B10, the “pseudovirus neutralization IC50” value is 0.00154 µg/mL in test [1]; 0.000965 µg/mL in test [2]; 0.00103 µg/mL in test [3]; 0.53 µg/mL in test [4]; over 10 µg/mL in test [5]; over 10 µg/mL in test [6]. Also, the “pseudovirus neutralization IC50” value in test [7] is 0.00457 µg/mL.

B11: DH1196 (protein)
chain 1: QVQLVQSGSELKKPGASVKVSCKASGYTFTSYAMNWVRQAPGQGLEWMGWINTNTGNPTYAQGFTGRFVFSLDTSVSTAYLQISSLKAEDTAVYYCAGGYDFWSGYPNPTDYWGQGTLVTVSS
chain 2: QSVLTQPPSASGTPGQRVTISCSGSSSNIGSNYVYWYQQLPGTAPKLLIYRNNQRPSGVPDRFSGSKSGTSASLAISGLRSEDEADYYCAAWDDSLSGHVFGGGTKLTVL
As to B11, the “pseudovirus neutralization IC50” value in test [1], in test [2], in test [3], in test [4], in test [5] and in test [6] was over 10 µg/mL each time. Moreover, in test [7], the “pseudovirus neutralization IC50” value worked out at 3.04 µg/mL.

B12: BD56-605 (protein)
chain 1: QVQLVQSGPEVKKPGSSVKVSCKASGGTFSSYTISWVRQAPGQGLEWMGRIIPVLSITNYAQKFQGRVTITADTSTRTAYMELSSLSSEDTALYYCARDTRWGDFTDHEVHWFDPWGQGTLVIVSS
chain 2: DIVMTQSPDSLAVSLGERATINCKSSQSVFYSSKDKNCLAWYQQKAGQPPKLLIYWASTRESGVPDRFSGSGSGTDFTLTISSLQAEDVAVYYCQQYYNTADITFGPGTKVDIK
On to B12, for which the “pseudovirus neutralization IC50” value in test [1] was 0.0214 µg/mL; in test [2] it was 0.00445 µg/mL; in test [3], 0.0117 µg/mL; in test [4], over 10 µg/mL; in test [5], over 10 µg/mL; in test [6] it was over 10 µg/mL. For the same molecule, the “pseudovirus neutralization IC50” value in test [7] came to 0.202 µg/mL.
